Results deposited as PubChem BioAssay AID1224833 (University of Georgia, 2016)

- Test: 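Human genes whose knock-down alters rotavirus replication in monkey cells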 (primary screen)
- Cells: monkey MA104 kidney cells
- Knock-down reagent: siRNA pool against human genes, 50 nM
- Time to read-out: 48 h knock-down before infection; read 24 h after infection
- Challenge: infection with rotavirus strain RV3 two days after transfection; infectious dose for this stage not given
- Read-out: 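z-score of rotavirus antigen signal per well, from a fluorescent immunoassay, relative to non-targeting control wells on the same plate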
- Direction: z-score vs non-targeting control: higher = more rotavirus replication than with non-targeting control
- Rule for the call: In these data the active calls have z-score vs non-targeting control at about -1 or lower, or at about 1 or higher
- Calls: active = z-score beyond 1 either way; inactive = z-score within 1 of zero
The whole screen tested about 12,000 reagents; shown is an unselected part. About 5,600 of them (46%) count as active. 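Active calls cover z-scores past 1 in both directions, so they include lowered as well as raised rotavirus replication.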 Reagent sequences are not shown.

Silencing of ELANE resulted in: z-score vs non-targeting control 1.62; active.
For ATP5PB, the values are z-score vs non-targeting control 0.467; inactive.
Silencing of TRMT5 came out at: z-score vs non-targeting control -0.0441; inactive.
BID scored z-score vs non-targeting control -2.82; active.
Depletion of CHP2 came out at: z-score vs non-targeting control -1.36; active.
Knock-down of GSC gave: z-score vs non-targeting control 0.112; inactive.
After knock-down of TEKT3, the record shows z-score vs non-targeting control 0.257; inactive.
CCNB1IP1 scored z-score vs non-targeting control -0.289; inactive.
SAP30BP scored z-score vs non-targeting control -1.72; active.
For TXNDC5, the entry reads z-score vs non-targeting control -0.664; inactive.
For SCARB2, the values are z-score vs non-targeting control -0.324; inactive.
Against SPANXA1, the values are z-score vs non-targeting control -0.676; inactive.
For NEFL the deposit lists z-score vs non-targeting control 0.943; inactive.
With knock-down of SLCO5A1, the screen gave z-score vs non-targeting control 0.264; inactive.
After knock-down of NUP214 the results were z-score vs non-targeting control -1.12; active.
Against ARHGDIA, the entry reads z-score vs non-targeting control 1.39; active.
With knock-down of LTA4H, the screen gave z-score vs non-targeting control -1.79; active.

In a second layout: entries from further up.
| gene | z-score vs non-targeting control | outcome |
| --- | --- | --- |
| TRMT5 | -0.0441 | inactive |
| BID | -2.82 | active |
| CHP2 | -1.36 | active |
| GSC | 0.112 | inactive |
| TEKT3 | 0.257 | inactive |

The listing continues:
After knock-down of SEMA4B, the record shows z-score vs non-targeting control -2.83; active.
GLI3 showed z-score vs non-targeting control -1.49; active.
With knock-down of SPANXN3 the results were z-score vs non-targeting control -1.77; active.
For CCDC54 the deposit lists z-score vs non-targeting control 0.234; inactive.
With knock-down of OR2AG1, the screen gave z-score vs non-targeting control -2.65; active.
JPH4 scored z-score vs non-targeting control 0.982; inactive.
For ACTRT1, the values are z-score vs non-targeting control 1.06; active.
Knock-down of CMTM7 gave: z-score vs non-targeting control -0.186; inactive.
With knock-down of ADAT2, the record shows z-score vs non-targeting control -1.26; active.
After knock-down of EPS8L2, the screen gave z-score vs non-targeting control -0.775; inactive.
Against SCFD2, the entry reads z-score vs non-targeting control -1.45; active.
Depletion of PITHD1 resulted in: z-score vs non-targeting control 0.627; inactive.
S100G showed z-score vs non-targeting control 0.618; inactive.
SPATC1 scored z-score vs non-targeting control -0.825; inactive.
Against CBX4 the deposit lists z-score vs non-targeting control 0.846; inactive.
Depletion of OR1L4 gave: z-score vs non-targeting control -0.322; inactive.
For CYP26C1 the deposit lists z-score vs non-targeting control 0.0832; inactive.
After knock-down of FKBP6 the results were z-score vs non-targeting control -1.5; active.
For PLN, the values are z-score vs non-targeting control -0.634; inactive.
ATP6V0A4 gave z-score vs non-targeting control -2.47; active.
Against OGFRL1, the entry reads z-score vs non-targeting control 0.279; inactive.
For HSPA8 the deposit lists z-score vs non-targeting control -1.32; active.
For MNDA, the values are z-score vs non-targeting control -1.14; active.
After knock-down of OR14J1, the record shows z-score vs non-targeting control -1.2; active.
Silencing of GSTO2 gave: z-score vs non-targeting control 0.81; inactive.
Knock-down of CASKIN2 came out at: z-score vs non-targeting control 1.61; active.
PNLIP showed z-score vs non-targeting control 0.633; inactive.
For DTWD1 the deposit lists z-score vs non-targeting control 2.18; active.
After knock-down of POLG, the screen gave z-score vs non-targeting control 1.68; active.
Silencing of CACFD1 resulted in: z-score vs non-targeting control -1.15; active.
